Reference: article PMC3504009, “Autoproteolysis and Intramolecular Dissociation of Yersinia YscU Precedes Secretion of Its C-Terminal Polypeptide YscUCC” (2012)

Experiments:
[1] = target: YscUCC-His6 with A268F, from GST-A268F-His6, Y. pseudotuberculosis, P69987 264-354
[2] = target: YscUCN, N-terminal cytoplasmic polypeptide of the cleaved cytosolic domain YscUC of YscU, Y. pseudotuberculosis, P69987 211-263
[3] = target: YscUCC of the YscUC suppressor mutant A268F, Y. pseudotuberculosis, P69987 264-354
[4] = target: YscUCC of the YscUC variant H324A, Y. pseudotuberculosis, P69987 264-354

For “GST-YscUCN, the GST-carrying N-terminal fragment of GST-YscUC-His6 A268F”, the result [1] was “binds”.
Substance “YscUCC of the YscUC suppressor mutant A268F” has a dissociation lifetime τ diss at 37°C [2] of 70.1 min.
“YscUCC of the YscUC suppressor mutant V292T” gave a dissociation lifetime τ diss at 37°C [2] of 60.8 min.
“YscUCC of the YscUC suppressor mutant Y287G” showed a dissociation lifetime τ diss at 37°C [2] of 138 min.
For “YscUCN, N-terminal cytoplasmic polypeptide of the cleaved cytosolic domain YscUC of YscU A268F”, the result [3] was “binds”.
In the case of “YscUCN, N-terminal cytoplasmic polypeptide of the cleaved cytosolic domain YscUC of YscU H324A”, the result [4] is reported as “binds”.
